Results of unrelated studies side by side (data: NIAID ChemDB).

Common to all: growth or infection tests; species: Hepatitis B virus; endpoint: EC50

a–b is a range or a potency band.

Nc1ncc(I)c2c1ncn2[C@@H]1C[C@H](O)[C@@H](O)[C@H]1O ; cell line: HepG2.2.15 ; value: 0.808 µM
CC1c2cc(C(=O)O)c(=O)n(C3CC3)c2-c2cc(Cl)c(OCCCC#N)cc2S1(=O)=O ; read by: antigen / visual reading / absorbance ; cell line: Primary human hepatocytes ; value: >0.5 µM
CCOC(=O)C1=C(CN2CC(F)(F)[C@@H]3[C@H]2CON3CC[C@@](C)(O)C(=O)O)NC(c2nccs2)=N[C@H]1c1ccc(F)c(F)c1Cl ; read by: PCR ; cell line: HepG2.2.15 ; value: 0.049 µM
COc1ccc(-n2c(C(=O)NCc3ccccc3)c3n(c2=O)C[C@@H](C2CC2)N(C(=O)c2ccc(Br)c(Cl)c2)C3)cc1 ; read by: PCR ; cell line: HepG2.117 ; value: 0.1–0.5 µM
CC1c2cc(C(=O)O)c(=O)n(C3CC3)c2-c2cc(Cl)c(-c3cnn(C)c3)cc2S1(=O)=O ; read by: antigen / visual reading / absorbance ; cell line: Primary human hepatocytes ; value: 0.1–0.5 µM
CCOC(=O)C1=C(CN2CC(F)(F)[C@H]3[C@@H]2CCN3C[C@@H](F)C(C)(C)C(=O)O)NC(c2nc(C)cs2)=N[C@H]1c1cccc(F)c1C ; read by: PCR ; cell line: HepG2.2.15 ; value: 0.001 µM
O=C(Nc1ccc(F)c(Cl)c1)N1CCn2c(c3n(c2=O)CCN(Cc2ccccc2)C3=O)C1 ; read by: PCR ; cell line: HepG2.2.15 ; value: 0.5–5 µM
CCOC(=O)C1=C(CN2CC(F)(F)[C@@H]3[C@H]2CON3CC(O)(CC)C(=O)O)NC(c2nccs2)=N[C@H]1c1cccc(F)c1C ; read by: PCR ; cell line: HepG2.2.15 ; value: 0.773 µM
O=c1[nH]c(=O)n(COC(CO)CO)cc1Cl ; strain: Mutant M204I ; cell line: B1 ; value: 56 µg/mL
CCOC(=O)C1=C(CN2CC(F)(F)[C@@H]3[C@H]2CON3C[C@H](O)C(C)(C)C(=O)O)NC(c2nccs2)=N[C@H]1c1ccc(F)c(F)c1F ; read by: PCR ; cell line: HepG2.2.15 ; value: 0.0455 µM
COc1ccc(-n2c(C(=O)NCc3cccc(C#N)c3)c3n(c2=O)CCN(C(=O)c2ccc(Cl)c(Cl)c2)C3)cc1 ; read by: PCR ; cell line: HepG2.117 ; value: 0.5–5 µM
O=C1NC(=O)/C(=C/c2ccc(-c3ccc(C#Cc4ccccc4)cc3)cc2)S1 ; strain: Genotype D ; read by: PCR ; cell line: HepG2-NTCP ; value: >10 µM
COc1ccc(-n2c(C(=O)NCc3ccc(OCC(=O)O)cc3)c3n(c2=O)CCN(C(=O)c2ccc(Br)c(Cl)c2)C3)cc1 ; read by: PCR ; cell line: HepG2.117 ; value: >5 µM
COC(=O)C1=C(CN2CC(F)(F)[C@H]3[C@@H]2CCN3CC[C@@](C)(O)C(=O)O)NC(c2nccs2)=N[C@H]1c1ccc(F)c(F)c1Cl ; read by: PCR ; cell line: HepG2.2.15 ; value: 0.038 µM
CCOC(=O)Nc1cc2c(cc1OCCCOC)S(=O)(=O)Cc1cc(C(=O)O)c(=O)n(C3CC3)c1-2 ; read by: antigen / visual reading / absorbance ; cell line: Primary human hepatocytes ; value: >0.5 µM
COc1ccc(-n2c(C(=O)NCc3ccc(OC)cc3C3CC3)c3n(c2=O)CCN(C(=O)c2ccc(Br)c(Cl)c2)C3)cc1 ; read by: PCR ; cell line: HepG2.117 ; value: 0.1–0.5 µM
C#C[C@]1(O)CCC(F)(F)c2c3c(nn2C1)CCN(C(=O)Nc1ccnc(Br)c1F)C3 ; read by: fluorescence ; cell line: HepG2.2.15 ; value: 0.199 µM
CCOC(=O)C1=C(CN2CC(F)(F)[C@@H]3[C@H]2CON3C[C@@H](F)CC(C)(C)C(=O)O)NC(c2nccs2)=N[C@H]1c1cccc(F)c1C ; read by: PCR ; cell line: HepG2.2.15 ; value: 0.009 µM
O=C1NC(=O)/C(=C/c2ccc(-c3ccc4c5ccccc5c5ccccc5c4c3)cc2)S1 ; strain: Genotype D ; read by: PCR ; cell line: HepG2-NTCP ; value: 7.8 µM
CCOC(=O)C1=C(CN2CC(F)(F)[C@H]3[C@@H]2CCN3C[C@@H](OC)C(C)(C)C(=O)O)NC(c2nc(C)cs2)=N[C@H]1c1cccc(F)c1C ; read by: PCR ; cell line: HepG2.2.15 ; value: 0.002 µM
COCCCOc1cc2c(cc1C)-c1c(cc(C(=O)O)c(=O)n1C1CC1)C(C)S2(=O)=O ; read by: antigen / visual reading / absorbance ; cell line: Primary human hepatocytes ; value: 0.1–0.5 µM
O=C1NC(=O)/C(=C/c2ccc(-c3ccc(-c4cccnc4)cc3)cc2)S1 ; strain: Genotype D ; read by: PCR ; cell line: HepG2-NTCP ; value: >10 µM
N#Cc1nc(NC(=O)N2CCc3nn4c(c3C2)C(F)(F)CC[C@H](O)C4)ccc1F ; read by: fluorescence ; cell line: HepG2.2.15 ; value: 0.022 µM
COc1ccc(CNC(=O)c2c3n(c(=O)n2-c2ccccc2)CCN(C(=O)c2ccc(Br)c(Cl)c2)C3)cc1 ; read by: PCR ; cell line: HepG2.2.15 ; value: 0.5–5 µM
COC(=O)C1=C(CN2CC(F)(F)[C@@H]3[C@H]2CON3C[C@H](O)C(C)(C)C(=O)O)NC(c2nccs2)=N[C@H]1c1cccc(F)c1Cl ; read by: PCR ; cell line: HepG2.2.15 ; value: 0.1295 µM
COCCCOc1cc2c(cc1Cl)-c1c(cc(C(=O)O)c(=O)n1C1CC1)C(C(C)(C)C)S2(=O)=O ; read by: antigen / visual reading / absorbance ; cell line: Primary human hepatocytes ; value: >0.5 µM
O=C(O)COc1ccc(-n2c(C(=O)NCc3ccccc3)c3n(c2=O)CCN(C(=O)c2ccc(Br)c(Cl)c2)C3)cc1 ; read by: PCR ; cell line: HepG2.117 ; value: >5 µM
COCCCOc1ccc2c(c1)S(=O)(=O)C(C)c1cc(C(=O)O)c(=O)n(C3CC3)c1-2 ; read by: antigen / visual reading / absorbance ; cell line: Primary human hepatocytes ; value: >0.5 µM
O=C1NC(=O)/C(=C/c2ccc(-c3ccccc3)cc2)S1 ; strain: Genotype D ; read by: PCR ; cell line: HepG2-NTCP ; value: 21.4 µM
CCC1c2cc(C(=O)O)c(=O)n(C3CCCC3)c2-c2cc(Cl)c(OCCCOC)cc2S1(=O)=O ; read by: antigen / visual reading / absorbance ; cell line: Primary human hepatocytes ; value: >0.5 µM
O=C(Nc1ccc(F)c(C(F)(F)F)n1)N1CCc2nn3c(c2C1)C(F)(F)CC[C@H](O)C3 ; read by: fluorescence ; cell line: HepG2.2.15 ; value: 0.037 µM
COc1ccc(-n2c(C(=O)NCC3CC3)c3n(c2=O)CCN(C(=O)c2ccc(Cl)c(Cl)c2)C3)cc1 ; read by: PCR ; cell line: HepG2.117 ; value: >5 µM
COCCCOc1cc2c(cc1NCCC(=O)O)-c1c(cc(C(=O)O)c(=O)n1C1CC1)C(C)S2(=O)=O ; read by: antigen / visual reading / absorbance ; cell line: Primary human hepatocytes ; value: >0.5 µM

2 of the rows above, restated:

| structure | strain | read by | cell line | value |
|---|---|---|---|---|
| COCCCOc1cc2c(cc1Cl)-c1c(cc(C(=O)O)c(=O)n1C1CC1)C(C(C)(C)C)S2(=O)=O |  | antigen / visual reading / absorbance | Primary human hepatocytes | >0.5 µM |
| N#Cc1nc(NC(=O)N2CCc3nn4c(c3C2)C(F)(F)CC[C@H](O)C4)ccc1F |  | fluorescence | HepG2.2.15 | 0.022 µM |

ECn is the concentration giving n% inhibition of infection, replication or growth. An empty or dashed field is not shown. Rows are shuffled and stem from different studies.